This passage reports inhibition results from PubChem BioAssay AID1430 (University of Pittsburgh Molecular Library Screening Center, 2008).

The list shows a part of the results, in another mix than the full data. Activity calls are given as the source filed them.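 How the source made its calls: active means inhibition of 50% or more in the single-dose primary screen; inactive means inhibition below 50%.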

In the experiment the test system is hexokinase 1 [Trypanosoma brucei]. Put plainly: TbHK1 enzyme activity blockers – biochemical, G6PDH-coupled NADH absorbance, MLSCN library, primary screen (AID 1430). Particulars: recombinant TbHK1, G6PDH-coupled NADH A340; at 10 µM; stronger effect = higher value.
As for `O=C(NCC1(N2CCOCC2)CCCCC1)c1cc2ccccc2o1`, the inhibition (in general, the drop in the measured response relative to a control, in per cent) was inactive: 0.907%.

Regarding `CCOC(=O)N1CCC(Nc2ccc(OC)cc2)CC1`, the inhibition was inactive: 5.62%.

As for `N#CC1(Nc2ccccc2)CCN(Cc2ccccc2)CC1`, the inhibition is inactive: -6.83%.

`O=C(OC1CN2CCC1CC2)C1c2ccccc2Oc2ccccc21` (centres undefined): the inhibition is inactive: 2.35%.

For the compound `COc1ccc(C(=O)NCC2(N3CCCCC3)CCCCC2)c(OC)c1OC`, the inhibition is inactive: -3.73%.

Turning to `Cc1ccc(OCC(C)C)c(CN(CCCl)CCCl)c1`, the inhibition is inactive: -1.75%.

Consider `CCOc1ccc(C)cc1CN(CCCl)CCCl`, for which the inhibition is inactive: -2.67%.

Turning to `COc1ccc(NC2CCN(CCc3ccccc3)CC2)c(OC)c1`, the inhibition was inactive: 0.705%.

Regarding `COc1ccc(NC2CCN(C(=O)OC(C)(C)C)CC2)cc1`, the inhibition was inactive: -3.54%.

As to `CN1CCN(CCOC(=O)C(O)(c2ccccc2)c2ccccc2)CC1`, the inhibition was inactive: 14.7%.

As to `O=C(NCC1(N2CCOCC2)CCCCC1)c1cc(=O)[nH]c2ccccc12`, the inhibition was inactive: -11.9%.

For `O=C(NCC1(N2CCCCC2)CCCCC1)c1cccc([N+](=O)[O-])c1`, the inhibition is inactive: -2.44%.

Consider `N#CC1(Nc2ccccc2)CCN(CCc2ccccc2)CC1`, for which the inhibition was inactive: 0.79%.

With `CN1CCC(Nc2cccc(F)c2)CC1`, the inhibition was inactive: -3.23%.

As to `CN(C)c1cccc(C(=O)NCC2(N3CCCCC3)CCCCC2)c1`, the inhibition is inactive: -0.541%.

Consider `COc1ccc(CN(CCCl)CCCl)cc1Cl`, for which the inhibition was inactive: 0.783%.

Regarding `CC(C)c1ccc(NC2CCN(C(=O)OC(C)(C)C)CC2)cc1`, the inhibition is inactive: -4.57%.

For the compound `N/C(=N\O)c1c(N)no[n+]1[O-]`, the inhibition is inactive: 19.9%.

For `O=C(OC1CN2CCC1CC2)C1c2ccccc2C=Cc2ccccc21` (centres undefined), the inhibition is inactive: 6.32%.

With `COc1ccc(C(=O)NCC2(N3CCOCC3)CCCCC2)cc1OC`, the inhibition is inactive: -7.86%.

Regarding `c1ccc(CN2CCC(Nc3ccccc3)CC2)cc1`, the inhibition was inactive: 15.4%.

Regarding `N#Cc1ccc(C(=O)NCC2(N3CCCCC3)CCCCC2)cc1`, the inhibition is inactive: -2.98%.

In the case of `CCN1CCC(Nc2cccc(F)c2)CC1`, the inhibition is inactive: 1.78%.

In the case of `CN(C)c1ccc(C(=O)NCC2(N3CCCCC3)CCCCC2)cc1`, the inhibition was inactive: 1.22%.

For `CCC(CO)(C(=O)OC1CN2CCC1CC2)c1ccccc1` (centres undefined), the inhibition is inactive: 2.35%.

`COc1cc(OC)cc(C(=O)NCC2(N3CCOCC3)CCCCC2)c1`: the inhibition was inactive: -5.69%.

For the compound `CCCOc1ccc(C)cc1CN(CCCl)CCCl`, the inhibition is inactive: 0.988%.

As to `CCOc1ncccc1C(=O)NCC1(N2CCOCC2)CCCCC1`, the inhibition was inactive: 4.23%.

For `CC(C)(C)OC(=O)N1CCC(Nc2ccccc2)CC1`, the inhibition is inactive: -1.98%.
